Reference: PubChem BioAssay AID1259414 (Drosophila RNAi Screening Center, 2018)

Purpose: 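Genome-wide screen for host control of endosymbiont load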 (primary screen)
Cell system: Drosophila JW18 cells infected with Wolbachia
Reagent: long dsRNA against Drosophila genes, 0.25 µg dsRNA per well of a 384-well plate
Time to read-out: 5 days
Treatment: cells persistently infected with Wolbachia before knock-down; no added drug
Measured: 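Imaged fluorescence in situ signal for Wolbachia 23S rRNA per DAPI-counted host cell, given as a robust z-score within each plate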
Scale: Wolbachia per cell robust z: higher = more Wolbachia per host cell than the plate typical
Hit rule: 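Hit when robust z is 1.5 or more, or -1.5 or less, in at least two of three replicates; excludes dsRNAs with several or no targets, genes not expressed in JW18 and well A1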
In all, the deposit lists about 24,000 reagents; below is a random part of those that have a named target and a result. Over the whole deposit, about 1,210 (5%) were called active. 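Inactive calls also include excluded dsRNAs with several or no targets, genes unexpressed in JW18, and well A1, regardless of score.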 Names joined by + are all predicted targets of the reagent.

target gene	amplicon	Wolbachia per cell robust z, rep 1	Wolbachia per cell robust z, rep 2	Wolbachia per cell robust z, rep 3	Call
Blos3	DRSC09573	0.83	0.838	-1.06	inactive
Blos3	DRSC41477	-3.1	0.404	-0.717	inactive
CG34040	DRSC38894	-0.684	-1.42	0.872	inactive
CG7201	DRSC10786	-0.602	0.686	1.02	inactive
CG12911	DRSC06226	0.0922	-2.32	0.25	inactive
CG12911	DRSC27975	-2.07	-0.922	-0.144	inactive
CG3902	DRSC10387	0.692	-0.839	0.53	inactive
CG3902	DRSC24267	1.74	-0.407	-0.608	inactive
scramb1	DRSC09724	0.181	-0.00419	-1.7	inactive
scramb1	DRSC10667	0.885	0.647	0.266	inactive
scramb1	DRSC10668	0.254	-1.08	-0.494	inactive
ru	DRSC08258	-0.192	0.654	0.852	inactive
ru	DRSC28529	-0.0912	1.03	-0.844	inactive
alpha4GT1	DRSC00488	0.268	-0.587	-0.097	inactive
Cyp6t2Psi	DRSC01840	-0.17	0.0205	-0.285	inactive
Cyp6t2Psi	DRSC29500	-1.05	0.287	-7.43	inactive
Duba	DRSC10582	1.58	-7.33	0.724	inactive
CG44000 + CG33995 + CG44001	DRSC02898	1.01	-0.397	-1.21	inactive
CG32061	DRSC22605	-0.627	-0.09	0.526	inactive
CG32523	DRSC20510	-1.98	-0.948	-1.43	inactive
CG14104	DRSC10106	0.284	0.118	0.526	inactive
Herp	DRSC02394	0.53	1.95	1.08	inactive
Herp	DRSC26891	-4.06	-0.591	-11.4	active
Gal	DRSC03134	0.125	-0.204	-0.679	inactive
Gal	DRSC24562	0.457	-1.21	0.282	inactive
CR43670 + CR43669 + CR43671	DRSC01554	1.12	-0.75	-0.461	inactive
CG1806	DRSC19787	-3.57	0.368	1.13	inactive

Next part; the last 4 above are carried over.
target gene	amplicon	Wolbachia per cell robust z, rep 1	Wolbachia per cell robust z, rep 2	Wolbachia per cell robust z, rep 3	Call
Gal	DRSC03134	0.125	-0.204	-0.679	inactive
Gal	DRSC24562	0.457	-1.21	0.282	inactive
CR43670 + CR43669 + CR43671	DRSC01554	1.12	-0.75	-0.461	inactive
CG1806	DRSC19787	-3.57	0.368	1.13	inactive
CG1317	DRSC08305	-1.25	0.254	-1.21	inactive
RpL4	DRSC16833	4.66	1.97	5.73	active
RpL4	DRSC25032	1.31	3.19	3.13	active
Dhc98D	DRSC16645	0.711	-0.436	-1.56	inactive
Dhc98D	DRSC27784	0.197	1.75	1.27	inactive
GstE11	DRSC06926	-1.56	-0.989	-2.21	active
pzg	DRSC11848	0.975	1.04	-3.13	inactive
CG13566	DRSC04203	-0.0322	-2.35	-0.078	inactive
CG13566	DRSC25377	0.154	-1.02	-0.58	inactive
Tbce	DRSC04897	0.0738	1.06	1.15	inactive
Cf2	DRSC23015	-0.365	-1.91	-2.59	active
Cf2	DRSC28177	-0.349	-1.02	-0.913	inactive
CG17261	DRSC00498	0	-0.0494	0.341	inactive
CR18275 + CG32817 + CR18166	DRSC17249	-0.0812	0.39	-0.48	inactive
EndoGI	DRSC01964	1.12	0.86	0.697	inactive
CG14183	DRSC10182	0.763	0.684	-0.579	inactive
Cyt-b5-r	DRSC03308	-0.464	-3.98	-0.317	inactive
Gcna	DRSC18553	0.625	0.84	-0.319	inactive
yellow-e3	DRSC15170	0.802	0.134	1.1	inactive
